PubChem BioAssay AID504761 – Drosophila RNAi Screening Center – 2011
In all, the deposit lists about 22,000 reagents; this is a random part of those that have a named target and a result. Of all reagents, 116 (0.52%) got an active call. 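Calls depend on retest data that are not deposited; infection was ranked per plate without normalising between plates; the unit of the infection score is not given.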 The raw values are shown without normalisation. A number with no mark means an inactive call. Names joined by + are all predicted targets of the reagent. Not given: the amount of reagent, the time to read-out.

Aim: 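Fly genes whose silencing reduces dengue virus type 2 infection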 (primary screen)
Cells: D.Mel-2 cells from Drosophila
Reagents: long dsRNA against Drosophila genes
Challenge: infection with dengue virus type 2; dose and infection time not stated
Measurement: 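Cells stained for dengue envelope protein and imaged; percent of infected cells per well on duplicate plates, ranked by infection, with stained nuclei counted for cell number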
Direction: infection score: higher = more virus-infected cells; cell count: higher = more cells in the well
Active means: 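Low infection ranks in the two replicates (chance level up to 0.065) followed by a retest with a 1.5-fold or larger significant decrease, p below 0.05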
Meaning of the calls: active = confirmed: knock-down lowers infection; inactive = not picked or not confirmed

The first 6 records as a preview:
gene	DRSC id	infection score, replicate 1	infection score, replicate 2	cell count, replicate 1	cell count, replicate 2
CG16762 (GeneID 38310)	DRSC08493	2.63	3.67	6537	6410
CG14658 (GeneID 40603)	DRSC12244	5.23	4.52	6248	7086
CG10508 (GeneID 40342)	DRSC11612	16.9	5.84	5466	6710
CG10508 (GeneID 40342)	DRSC11613	5.71	1.62	6565	6587
Npc2e (GeneID 326136)	DRSC15522	7.16	4.29	6468	7062
Npc2e (GeneID 326136)	DRSC22338	2.65	20.6	6223	5788

The list itself, from the first entry:
gene	DRSC id	infection score, replicate 1	infection score, replicate 2	cell count, replicate 1	cell count, replicate 2
CG16762 (GeneID 38310)	DRSC08493	2.63	3.67	6537	6410
CG14658 (GeneID 40603)	DRSC12244	5.23	4.52	6248	7086
CG10508 (GeneID 40342)	DRSC11612	16.9	5.84	5466	6710
CG10508 (GeneID 40342)	DRSC11613	5.71	1.62	6565	6587
Npc2e (GeneID 326136)	DRSC15522	7.16	4.29	6468	7062
Npc2e (GeneID 326136)	DRSC22338	2.65	20.6	6223	5788
SA2 (GeneID 38167)	DRSC08385	3.72	4.95	6073	6300
CG30281 (GeneID 246525)	DRSC04528	11.7	24.8	6130	5441
CG30281 (GeneID 246525)	DRSC26805	12.3	2.54	6881	7114
CG3581 (GeneID 42315)	DRSC15499	3.54	3.83	6473	6351
CG10444 (GeneID 37294)	DRSC05990	4.76	8.17	3488	3955
Flacc (GeneID 32886)	DRSC20040	3.86	8.27	6004	5819
Flacc (GeneID 32886)	DRSC25501	4.77	3.1	6226	5903
Nct (GeneID 42964)	DRSC16172	16.3	18.7	6367	6655
sordd1 (GeneID 32532)	DRSC28653	7.92	13.7	6085	5787
CG15533 (GeneID 43612)	DRSC15069		9.21	257	5439
CG15533 (GeneID 43612)	DRSC30031	2.64	5.72	6525	6778
Alms1a (GeneID 31393)	DRSC18558			387	415
CG32686 (GeneID 318153)	DRSC17645	10.2	4.15	6045	6379
CG32686 (GeneID 318153)	DRSC25488	9.72	5.39	2110	5644
ASPP (GeneID 37422)	DRSC23069	1.34	9.77	6119	6200
Rrp4 (GeneID 37731)	DRSC04434	19.4	6.84	5921	6013
Rrp4 (GeneID 37731)	DRSC29543	12.3	16.1	4384	5231
CG11298 (GeneID 37553)	DRSC04100	8.98	16.1	6860	4604
CG11970 (GeneID 41072)	DRSC14157	13.8	11.2	6455	6230
Nurf-38 (GeneID 37922)	DRSC04629	2.57	5.79	5988	6802
Nurf-38 (GeneID 37922)	DRSC26858	10.9	2.1	6101	6372
Cpr67Fa1 (GeneID 39223)	DRSC10932	1.77	1.23	5936	6192
Rcd5 (GeneID 38478)	DRSC08180	5.62	5.56	2952	4462
Rcd5 (GeneID 38478)	DRSC27788	9.56	21.3	6212	5665
CG30016 (GeneID 246393)	DRSC05242	5.88	0.91	5659	5517
CG30427 (GeneID 37986)	DRSC04014	6.03	4.82	6183	5850
CG30427 (GeneID 37986)	DRSC04311	24.9	24.5	6657	4136
CG30427 (GeneID 37986)	DRSC04323	2.77	10.3	6638	6080
CG30427 (GeneID 37986)	DRSC26361	11	2.89	4521	6922
CG5664 (GeneID 40371)	DRSC11782	8.03	5.67	6453	6521
Drgx (GeneID 5740176)	DRSC00278	13.5	6.53	6270	6818
Drgx (GeneID 5740176)	DRSC00537	6.1	3.16	6347	6327
Drgx (GeneID 5740176)	DRSC28844	18.1	27.7	5230	5599
CG2961 (GeneID 31954)	DRSC18246	15.6	20.4	6535	3381
CG2961 (GeneID 31954)	DRSC28539	19.2	3.9	6302	1025
CG31223 (GeneID 326127)	DRSC15115	9.25	11.1	6066	6478
CG32447 (GeneID 40412)	DRSC11732	2.72	27.5	7020	6100
CG32447 (GeneID 40412)	DRSC11805	7.28	7.45	6568	6466
CG34199 (GeneID 5740128)	DRSC05867	4.02	8.16	6288	6384
CG34199 (GeneID 5740128)	DRSC28143	10.3	28.2	6618	4657
CG13566 (GeneID 37813)	DRSC04203	5.9	21.7	2982	6507
CG13566 (GeneID 37813)	DRSC25377	7.79	7.88	6610	6513
CG33557 (GeneID 3346145)	DRSC17854	0.81	1.7	6782	7072
CG10165 (GeneID 35242)	DRSC02017	11.8	15.2	6609	6595
CG32945 (GeneID 318261)	DRSC12014	0.78	5.02	5915	5898
Trf2 (GeneID 31773)	DRSC18727	3.63	6.83	6056	6183
Trf2 (GeneID 31773)	DRSC29152	8.13	13.9	5066	3601
Ubr3 (GeneID 31713)	DRSC17987	12.3	20.5	6475	6092
Ubr3 (GeneID 31713)	DRSC17997	3.54	1.8	6075	5945
Ubr3 (GeneID 31713)	DRSC27473	33.5	22.2	6447	6477
Ubr3 (GeneID 31713)	DRSC29072	16.8	13.8	3254	5636
CG16812 (GeneID 34722)	DRSC02519	12.4	2.41	5993	6348
CG16812 (GeneID 34722)	DRSC25180	1.54	1.63	5520	5902
tst + CG10375	DRSC14237	2.94	6.14	5814	6155
osp (GeneID 34850)	DRSC01409	2.55	0.6	5480	5677
osp (GeneID 34850)	DRSC03585	12.4	8.83	5996	5956
CG6441 (GeneID 34029)	DRSC02957	17.1	3.82	4720	6413
RpL7-like + CG34164	DRSC02836	5.36	4.48	6403	6319
RpL7-like + CG34164	DRSC02837	12.2	15.5	6402	5450
Rpn6 (GeneID 36638)	DRSC07541	4.38	3.71	640	647
CG12708 + CG15646	DRSC23549	1.62	2.23	7033	6900
G9a (GeneID 30971)	DRSC18619	2	1.02	6450	6584
Alms1b + Alms1a	DRSC18559	2.79	4.39	6067	6679
Alms1b + Alms1a	DRSC27416	8.72	6.85	5926	6818
CG30447 (GeneID 246621)	DRSC05820	0.83	0.24	6400	4950
CG5292 (GeneID 42079)	DRSC15763	1.99	9.39	6681	5877
CG5292 (GeneID 42079)	DRSC26304	13.6	2.06	5947	6012
trr (GeneID 31149)	DRSC23290	9.26	4.18	4861	5431
trr (GeneID 31149)	DRSC28776	15.9	8.12	2696	1502
